Usually Kd stands for the free concentration of one partner at which half of the binding sites on the other are occupied at equilibrium, for simple one-to-one binding.

Substitutions are numbered along the chain they refer to.

This note sets out measurements from paper PMC11218954 (PLOS ONE, 2024).

In test [1] the target is T1, recombinant F1V fusion protein (F1 and V antigen), dimer-enriched, biotinylated (Yersinia pestis, strain , UniProt P26948, biotin (NHS-LC-LC biotinylation kit)). The test is described as follows: flow cytometry on cells. On the technique in general: A flow cytometer gives signals particle by particle.
Test [2] has as its target T1, recombinant F1V fusion protein (F1 and …). The test can be described thus: flow cytometry on cells. This is another data set of the same source.

B1: αF1sc 8 EP1-19, yeast-displayed (scFv, V domains shown)
VH: QVQLQQWGAGLLKPSETLSLTCAVYGGSFSGYYWSWIRQPPGKGLEWIGEINHSGNTNYNPSLKSRVTISVDTSKNQFSLQLNSVTPEDTAVYYCARTRGYFDLWGRGTLVTVSS
VL: QPVLTQSPSVSVSPGQTASITCSGDKLGGRYASWYQQKPGQSPVLVIYQDTKRPSGIPERFSGSNSGNTATLTISGTQAMDEADYYCQSWDSSAAVFGTGTKLTVL
Take B1: the binding result in test [1] is recorded as “binds”.

B2: αF1sc AM8 (αF1sc 8 EP2-24), affinity matured, yeast-displayed (scFv, V domains shown)
VH: B1 VH with H53R
VL: B1 VL
With B2, the dissociation constant Kd in test [2] was found to be 7.8 nM.

B3: αF1sc 8 (anti-F1 single chain antibody 8, parental), yeast-displayed (scFv, V domains shown)
VH: B1 VH
VL: B1 VL with G29D
Turning to B3, in test [2], the Kd worked out at 67.7 nM.

B4: αF1sc 2 (anti-F1 single chain antibody 2, parental), yeast-displayed (scFv, V domains shown)
VH: QVQLVESGGGLVKPGGSLRLSCAASGFTFSDYYMSWIRQAPGKGLEWVSYISSSGSIIYYADSVKGRFTISRDNAKNSLYLQMNSLRAEDTAVYYCAKEIRRHDAFDIWGQGTMVTVSS
VL: not shown
Regarding B4, the Kd in test [2] stood at 154 nM.

B5: αF1sc 2 EP2-3, yeast-displayed (scFv, V domains shown)
VH: B4 VH with S53G, R102K
VL: not shown
On to B5, for which, in test [1], the binding result is “binds”.

B6: αF1sc AM2 (αF1sc 2 EP3-18), affinity matured, yeast-displayed (scFv, V domains shown)
VH: B4 VH with S53G, R102K
VL: DIRMTQSPSSLSASVGDRVTITCRASRSISGYLNWYQQKPGKAPKLLIYATSSLQSGVPSRFSGSGSGTDFTLTISSLQPEDFATYYCQQSYSTPSSFGQGTKVDIK
Regarding B6, in test [2], the Kd came to 51.3 nM.

B7: αF1sc 2 EP1-42, yeast-displayed (scFv, V domains shown)
VH: B4 VH with R102K
VL: not shown
Turning to B7, in test [1], the binding result is recorded as “binds”.
